Compound potency records, mixed from different reports. Data source: NIAID ChemDB in PubChem.

All rows: enzyme or target tests; organism: HIV-1; protein: Integrase

An empty or dashed field is not shown.

compound,measure,mutations,read by,result
COc1ccc2[nH]c3c(C)cc4c(c3c2c1)C(=O)N(CCN(C)C)C4=O,IC50,-,strand transfer,>100 µM
O=C1c2c(O)c(=O)n(CC3CCCCC3)c(=S)n2CCN1Cc1ccc(F)cc1,IC50,-,strand transfer,<10 µM
CN1CCn2c(nc(C(=O)NCc3ccc(F)cc3S(C)(=O)=O)c(O)c2=O)C1(C)C,IC50,-,ELISA,<10 µM
N#C/C(=C\c1ccc(O)c(O)c1)C(=S)NCc1ccccc1,IC50,-,strand transfer,10–100 µM
CC(C)(C)C(=O)c1cn2c(c(O)c1=O)C(=O)N(CCCc1c(F)cccc1Cl)CC2,IC50,-,ELISA,<0.01 µM
O=C(/C=C(\O)c1ccccc1Cl)C(=O)N1CCN(C(=O)C(=O)/C=C(\O)c2ccccc2Cl)CC1,IC50,-,3′ processing,>100 µM
Oc1c(C(=S)NCc2ccc(F)cc2)occc1=S,IC50,-,3′ processing,64 µM
O=c1c(-c2ccncc2)cn2ccn(Cc3cccc(F)c3)c(=O)c2c1O,IC50,-,ELISA,0.01–0.1 µM
O=C(O)c1[nH]c(=O)c(O)c2c1CCN(Cc1ccc(F)cc1)C2=O,IC50,-,strand transfer,<1 µM
O=C1c2c(O)c(=O)n(CC3(N4CCOCC4)CCCC3)c(=O)n2CCN1Cc1ccc(F)cc1,IC50,-,strand transfer,<10 µM
O=C(NCCCCNC(=O)c1cc2cc(O)c(O)cc2[nH]1)c1cc2cc(O)c(O)cc2[nH]1,IC50,-,3′ processing,11 µM
O=C(O)C(=O)/C=C(\O)c1cn(Cc2ccc(F)cc2)c2ccc(OCc3ccc(F)cc3)cc2c1=O,IC50,-,strand transfer,0.05 µM
CN(Cc1cccc(-c2ccccc2)c1)C(=O)/C=C(\O)C(=O)O,IC50,-,strand transfer,<70 µM
COC(=O)c1cc(-c2ccccc2)on1,IC50,-,strand transfer,>1000 µM
O=C1C(=Cc2cc(O)c(O)c(O)c2)C(=O)c2ccccc21,IC50,-,strand transfer,0.5 µM
O=S(=O)(O)Oc1cc2c(ccn2S(=O)(=O)O)c(Cl)c1O,IC50,-,-,156 µM
CN1C/C(=C\c2ccc(O)c(O)c2)C(=O)/C(=C/c2ccc(O)c(O)c2)C1,IC50,-,strand transfer,0.9 µM
CC(C)n1c(C(=O)N(C)C)c2c(c(O)c1=O)C(=O)N(Cc1ccc(F)c(Cl)c1)CC2,IC50,-,strand transfer,<1 µM
O=C(O)/C(O)=C/C(=O)N(CCc1ccc(F)cc1)Cc1csc2ccc(Cl)cc12,IC50,-,strand transfer,<70 µM
CCc1cn(Cc2ccc(Cl)c(Cl)c2)c(=O)c2c(O)c(=O)ccn12,IC50,-,ELISA,0.01–0.1 µM
CC(c1ccc(F)cc1)N(C)C(=O)/C=C(\O)C(=O)O,IC50,-,strand transfer,<70 µM
O=c1c(-c2nccs2)cn2ccn(Cc3cccc(Cl)c3)c(=O)c2c1O,IC50,-,ELISA,<0.01 µM
Cc1cc(=O)c(O)c(C(=O)NCc2ccc(F)cc2)o1,IC50,-,-,1 µM
CN(c1[nH]c(=O)c(O)c2c1CCN(Cc1ccc(F)cc1)C2=O)S(C)(=O)=O,IC50,-,strand transfer,<1 µM
Cc1cc2c(c3c1[nH]c1cc(Cl)c(O)cc13)C(=O)N(CCN(C)C)C2=O,IC50,-,strand transfer,>100 µM
COC(=O)C(=O)/C=C(\O)c1cccc(N(Cc2ccccc2)Cc2ccccc2)c1,IC50,-,3′ processing,>100 µM
O=C1/C(=C/c2cc(O)c(O)c(O)c2)CC/C1=C\c1cc(O)c(O)c(O)c1,IC50,-,disintegration,0.2 µM
O=C(NCCc1ccccc1)c1cc2cc(O)c(O)cc2[nH]1,IC50,-,3′ processing,3.5 µM
CN1C/C(=C\c2ccc([N+](=O)[O-])c(O)c2)C(=O)/C(=C/c2ccc([N+](=O)[O-])c(O)c2)C1,IC50,-,strand transfer,>100 µM
O=C(Nc1cn2ccn(Cc3ccc(F)cc3)c(=O)c2c(O)c1=O)c1cccnc1,IC50,-,ELISA,<0.01 µM
O=C(NCCCNC(=O)c1cc2cc(O)c(O)cc2[nH]1)c1cc2cc(O)c(O)cc2[nH]1,IC50,-,3′ processing,4.2 µM
CN(C)CCN1C(=O)c2ccc3[nH]c4cc(O)c(O)cc4c3c2C1=O,IC50,-,strand transfer,>100 µM
Cc1nnc(CN2CCn3c(nc(C(=O)NCc4ccc(F)cc4)c(O)c3=O)C2(C)C)o1,IC50,-,ELISA,<10 µM
CN(C)CCN1C(=O)c2ccc3[nH]c4ccc(Cl)cc4c3c2C1=O,IC50,-,strand transfer,>100 µM
OC1/C(=C/c2ccc(Cl)c(Cl)c2)CCC/C1=C\c1ccc(Cl)c(Cl)c1,IC50,-,strand transfer,>100 µM
CN(CC1c2nc(C(=O)NCc3ccc(F)cc3)c(O)c(=O)n2CCN1C)C(=O)c1cccc[n+]1[O-],IC50,-,ELISA,<10 µM
CCCCC1CN(Cc2ccc(Cl)c(Cl)c2)C(=O)c2c(O)c(=O)ccn21,IC50,-,ELISA,0.01–0.1 µM
CN(C)CCCNC(=O)c1ccc2nc(-c3ccc4nc(-c5ccc(OCCCCCCCOc6ccc(-c7nc8ccc(-c9nc%10ccc(C(=O)NCCCN(C)C)cc%10[nH]9)cc8[nH]7)cc6)cc5)[nH]c4c3)[nH]c2c1,Ki,-,3′ processing,0.03 µM
CC(=O)N1Cn2c(nc(C(=O)NCc3ccc(F)cc3)c(O)c2=O)C1(C)C,IC50,-,ELISA,<10 µM
O=C(NCc1ccccc1)c1cc2cc3c(cc2[nH]1)OCO3,IC50,-,3′ processing,>100 µM
O=C1/C(=C/c2cc(O)c(O)c(O)c2)CSC/C1=C\c1cc(O)c(O)c(O)c1,IC50,-,strand transfer,0.5 µM
CN(Cc1cccc(OCc2ccc(F)cc2)c1)C(=O)/C=C(\O)C(=O)O,IC50,-,strand transfer,<70 µM
COC(=O)Cc1cn2ccn(Cc3cccc(Cl)c3)c(=O)c2c(O)c1=O,IC50,-,ELISA,0.01–0.1 µM
N#C/C(=C\c1cc(O)c(O)c([N+](=O)[O-])c1)C(=O)NCCCNC(=O)/C(C#N)=C/c1cc(O)c(O)c([N+](=O)[O-])c1,IC50,-,strand transfer,1.9 µM
Cc1ccc(-c2c([C@H](OC(C)(C)C)C(=O)O)c(C)nc3ccccc23)cc1C,IC50,A128T,strand transfer / fluorescence,0.0397 µM
O=C(O)CC1C/C(=C\c2ccc(O)c(O)c2)C(=O)/C(=C/c2ccc(O)c(O)c2)C1,IC50,-,strand transfer,1.2 µM
N#C/C(=C\c1cc(O)c(O)c(O)c1)C(N)=O,IC50,-,3′ processing / substrate cleavage,10–100 µM
CCC(C)(C)C(=O)c1cn2ccn(Cc3ccc(F)cc3)c(=O)c2c(O)c1=O,IC50,-,ELISA,0.01–0.1 µM
O=C(NCCCCCCNC(=O)c1cc2cc3c(cc2[nH]1)OCO3)c1cc2cc3c(cc2[nH]1)OCO3,IC50,-,3′ processing,>100 µM
N#C/C(=C\c1ccc(O)c(O)c1)C(=O)NCCCCCNC(=O)/C(C#N)=C/c1ccc(O)c(O)c1,IC50,-,strand transfer,5–10 µM
CN(C)C(=O)c1[nH]c(=O)c(O)c2c1CCN(Cc1ccc(F)cc1)C2=O,IC50,-,strand transfer,<1 µM
CN1CCn2c(nc(C(=O)NCc3ccc(F)cc3)c(O)c2=O)C1CN(C)S(C)(=O)=O,IC50,-,ELISA,<10 µM
O=C(/C=C(\O)C(=O)O)/C=C(\O)c1ccccc1Cl,IC50,-,strand transfer,220 µM
CC(C)n1c(=O)c(O)c2n(c1=O)CCN(Cc1ccccn1)C2=O,IC50,-,strand transfer,<10 µM
CN(Cc1csc2ccc(Cl)cc12)C(=O)/C=C(\O)C(=O)O,IC50,-,strand transfer,<70 µM
CCOC(=O)/C(O)=C(\C#N)c1cn(Cc2ccc(F)cc2)c2ccccc12,IC50,-,strand transfer,>100 µM
O=C1/C(=C/c2cc(O)c(O)c(O)c2)CC(C(=O)O)C/C1=C\c1cc(O)c(O)c(O)c1,IC50,-,3′ processing,0.2 µM
O=C1c2c(O)c(=O)n(CCCn3ccnc3)c(=O)n2CCN1Cc1ccc(F)cc1,IC50,-,strand transfer,<10 µM
O=C(O)c1cc(-c2cn(Cc3ccccc3)c3ccccc23)on1,IC50,-,strand transfer,200 µM

Again, the opening 8 rows:

compound | measure | mutations | read by | result
COc1ccc2[nH]c3c(C)cc4c(c3c2c1)C(=O)N(CCN(C)C)C4=O | IC50 | - | strand transfer | >100 µM
O=C1c2c(O)c(=O)n(CC3CCCCC3)c(=S)n2CCN1Cc1ccc(F)cc1 | IC50 | - | strand transfer | <10 µM
CN1CCn2c(nc(C(=O)NCc3ccc(F)cc3S(C)(=O)=O)c(O)c2=O)C1(C)C | IC50 | - | ELISA | <10 µM
N#C/C(=C\c1ccc(O)c(O)c1)C(=S)NCc1ccccc1 | IC50 | - | strand transfer | 10–100 µM
CC(C)(C)C(=O)c1cn2c(c(O)c1=O)C(=O)N(CCCc1c(F)cccc1Cl)CC2 | IC50 | - | ELISA | <0.01 µM
O=C(/C=C(\O)c1ccccc1Cl)C(=O)N1CCN(C(=O)C(=O)/C=C(\O)c2ccccc2Cl)CC1 | IC50 | - | 3′ processing | >100 µM
Oc1c(C(=S)NCc2ccc(F)cc2)occc1=S | IC50 | - | 3′ processing | 64 µM
O=c1c(-c2ccncc2)cn2ccn(Cc3cccc(F)c3)c(=O)c2c1O | IC50 | - | ELISA | 0.01–0.1 µM

ICn is the concentration giving n% inhibition. Neighbouring rows are from separate reports. a–b is a range or a potency band.